A mixed list of measured activities; the numbers were collected in NIAID ChemDB.

All rows: tests in culture; agent: Herpes simplex virus 1; cell line: PRK; read by: cytopathic effect; read-out: EC50

ECn is the concentration giving n% inhibition of infection, replication or growth. Neighbouring rows are from separate reports.

| structure | strain or isolate | result |
|---|---|---|
| COc1nc(=O)n([C@H]2C[C@H](O)[C@@H](CO)O2)cc1/C=C/Cl | F | 0.2 µg/mL |
| CCc1cn([C@H]2C[C@H](O)[C@@H](COP(=O)(O)O)O2)c(=O)[nH]c1=O | KOS | 1.4 µg/mL |
| O=C(CI)NCc1cn([C@H]2C[C@H](O)[C@@H](CO)O2)c(=O)[nH]c1=O | KOS | >200 µg/mL |
| O=c1[nH]c(=O)n([C@H]2C[C@H](O)[C@@H](CO)O2)cc1/C=C/Br | F | 0.02 µg/mL |
| O=Cc1cn([C@H]2C[C@H](O)[C@@H](CO)O2)c(=O)[nH]c1=O | F | 2 µg/mL |
| Nc1nc(=O)n([C@H]2C[C@H](O)[C@@H](CO)O2)cc1/C=C/Cl | McIntyre | 0.07 µg/mL |
| O=c1[nH]c(=O)n([C@H]2C[C@H](O)[C@@H](CO)O2)cc1/C=C/Br | F | 0.017 µg/mL |
| CSCc1cn([C@H]2C[C@H](O)[C@@H](CO)O2)c(=O)[nH]c1=O | VEX149 | 20 µg/mL |
| O=c1[nH]c(=O)n([C@@H]2C[C@H](CO)[C@@H](O)C2)cc1/C=C/Br | McIntyre | 0.02 µg/mL |
| Nc1nc2c(ncn2COCCOP(=O)(O)O[C@@H]2[C@H](O)[C@@H](COP(=O)(O)O[C@@H]3[C@H](O)[C@@H](CO)O[C@H]3n3cnc4c(N)ncnc43)O[C@H]2n2cnc3c(N)ncnc32)c(=O)[nH]1 | F | 0.7 µg/mL |
| O=c1[nH]c(=O)n(C2CC(CO)[C@@H](O)C2)cc1/C=C/Br | KOS | 0.02 µg/mL |
| CCc1cn([C@H]2C[C@H](O)[C@@H](CO)O2)c(=O)[nH]c1=O | B2006 (TK-) | >400 µg/mL |
| O=c1[nH]c(=O)n([C@H]2C[C@H](O)[C@@H](COP(=O)(O)O)O2)cc1/C=C/c1cccc([N+](=O)[O-])c1 | McIntyre | >100 µg/mL |
| O=c1[nH]c(=O)n(C2CC(CO)[C@H](O)C2)cc1I | F | 0.1 µg/mL |
| Nc1nc(=O)c(/C=C/Br)cn1[C@H]1C[C@H](O)[C@@H](CO)O1 | B2006 (TK-) | >400 µg/mL |
| Nc1nc2c(ncn2COCCO)c(=O)[nH]1 | F | 0.2 µg/mL |
| Nc1nc2c(ncn2COCCO)c(=O)[nH]1 | KOS | 0.06 µg/mL |
| O=c1[nH]c(=O)n([C@@H]2C[C@H](CO)[C@@H](O)C2)cc1I | KOS | 0.07 µg/mL |
| O=c1[nH]c(=O)n([C@H]2C[C@H](O)[C@@H](CO)O2)cc1CCCl | F | 0.15 µg/mL |
| O=c1[nH]c(=O)n([C@@H]2O[C@H](CO)[C@@H](O)[C@@H]2O)cc1/C=C/Br | F | 0.1 µg/mL |
| O=c1[nH]c(=O)n([C@H]2C[C@H](O)[C@@H](CO)O2)cc1I | B2006 (TK-) | >200 µg/mL |
| CCCc1cn([C@H]2C[C@H](O)[C@@H](COP(=O)(O)O)O2)c(=O)[nH]c1=O | F | 4 µg/mL |
| Nc1ncnc2c1ncn2[C@@H]1O[C@H](CO)[C@@H](O)[C@H]1OP(=O)(O)OC[C@H]1O[C@@H](n2cnc3c(N)ncnc32)[C@H](OP(=O)(O)OC[C@H]2O[C@@H](n3cc(F)c(=O)[nH]c3=O)C[C@@H]2O)[C@@H]1O | KOS | 70 µg/mL |
| O=c1[nH]c(=O)n([C@H]2C[C@H](O)[C@@H](CO)O2)cc1I | KOS | 0.1 µg/mL |

Repeating the final 3 entries:

structure	strain or isolate	result
CCCc1cn([C@H]2C[C@H](O)[C@@H](COP(=O)(O)O)O2)c(=O)[nH]c1=O	F	4 µg/mL
Nc1ncnc2c1ncn2[C@@H]1O[C@H](CO)[C@@H](O)[C@H]1OP(=O)(O)OC[C@H]1O[C@@H](n2cnc3c(N)ncnc32)[C@H](OP(=O)(O)OC[C@H]2O[C@@H](n3cc(F)c(=O)[nH]c3=O)C[C@@H]2O)[C@@H]1O	KOS	70 µg/mL
O=c1[nH]c(=O)n([C@H]2C[C@H](O)[C@@H](CO)O2)cc1I	KOS	0.1 µg/mL